This note sets out measurements from paper PMC10267556 (Nature Communications, 2023).

For the assay, the target named is T1, Spike (BA.4/5) (SARS-CoV-2, Omicron BA.4/5, strain).
T1 construct: source: bought: Sino Biological
Description: SPR. Particulars: both partners purified.

B1: TH281 (antibody, V domains shown)
VH: EVQLVESGGGLVQPGGSLRLSCAASEITVSRNYMSWVRQAPGKGLEWVSVMFAGGSTFYADSVKGRFTISRDNSKNTLYLQMNSLRAEDTAVYYCARDLGVVGATDYWGQGTLVTVSS
VL: not shown
notes: IgG1 (D2:p3)
Turning to B1, the affinity, expressed as Kd, was 0.199 nM.
